Assay results reported in publication PMC5355980.

Tested on: LuxR (LuxR-annotated transcriptional regulator)
Assay: EMSA
Conditions: 20 mM Tris-HCl pH 7.4, 50 mM KCl, 1 mM EDTA, 1 mM DTT, 5% glycerol, 100 ug/mL BSA, supplemented with 10 uM oxo-C12-HSL, 50 ng DNA, 3-30 ng His-LuxR, recombinant protein, residues 1-1024, protein details: N-terminal His (pTrcHis TOPO), probe letters rebuilt from the primers and the genome

“GGATGAAGTAAAGATATTAGCTAGGGTTATCAAAATGATATAAGTTATAAAGCTTTAAAAATTAGCTCTCATTTTTGTCGTTATTGTTTGAAAAATATAGTTTTTTAGAGAAAATTATTATTTTTTTTGTCATTTTTGATAATATTAAAAAGAAAGGGTTTACATATTAATCATTTTTTACTATAATAAAAGTGATAAGAACTAGATAGTTGTTGTGTTACAACAGTACAATTGAGCTAGCCTTGTCCTTGTTGTGTTAACTTTATTTTTAAAATAAGGTTAAAAATAAACGACTCGTGTTCTTATCAGTTACTTATTAGATAAGGAGGTAAACC (double strand) [sagA promoter probe, 334 bp]”: binds (10 uM oxo-C12-HSL); binds (no oxo-C12-HSL).

The exact form of at least one protein or probe is not confirmed.
